The numbers were not newly measured in article PMC9238359, which cites them from elsewhere.

By UniProt entry, the sequences of proteins in these tests, tags left out. Residues count along the entry.
UniProt Q16623, 1-20: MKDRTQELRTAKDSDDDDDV
UniProt Q16623, 25-265: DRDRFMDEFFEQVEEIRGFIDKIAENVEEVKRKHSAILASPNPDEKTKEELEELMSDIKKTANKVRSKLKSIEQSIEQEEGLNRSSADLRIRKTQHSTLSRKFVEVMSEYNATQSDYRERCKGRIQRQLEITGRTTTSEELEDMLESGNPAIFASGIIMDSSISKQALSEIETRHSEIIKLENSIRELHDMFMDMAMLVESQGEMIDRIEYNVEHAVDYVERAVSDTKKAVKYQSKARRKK
UniProt Q16623, 1-265: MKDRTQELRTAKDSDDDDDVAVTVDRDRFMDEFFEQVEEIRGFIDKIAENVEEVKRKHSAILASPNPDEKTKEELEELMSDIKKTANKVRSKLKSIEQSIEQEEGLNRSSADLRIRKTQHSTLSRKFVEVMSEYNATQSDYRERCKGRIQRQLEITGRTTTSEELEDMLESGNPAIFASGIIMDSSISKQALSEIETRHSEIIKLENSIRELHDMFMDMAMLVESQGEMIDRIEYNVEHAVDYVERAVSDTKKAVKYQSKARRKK

Assay in all cases: ITC
For orientation: Isothermal titration calorimetry measures the heat released or taken up as one component is titrated into another.

One data set has as its target STX1 N-terminal peptide (UniProt Q16623).
Data set [1] has as its target STX1 soluble lacking N-terminal peptide (UniProt Q16623).
The next data set addresses STX1 soluble (UniProt Q16623).

In the case of Munc18-1 (from UniProt P61764), the Kd with STX1 N-terminal peptide was 58000 nM; in data set [1], 8.1 nM; in the data set with STX1 soluble it was 1.5 nM.

The term Kd denotes the constant that tells how readily two partners part at equilibrium.
